## Library screen at single concentrations

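Whole-cell growth test on Mycobacterium tuberculosis, read after 3 days in glucose-containing 7H9 medium; the read-out is not stated. Compounds at 500 µM. Direction is inferred from retests: higher values go with more growth inhibition. Size under these conditions: about 18,000 compounds, about 1,400 of them at 50% or above in at least one test.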

Values are the deposited “Percent Effect”, in %. The controls that fix the scale are not given in the record; negative values are as filed. This is part of a subset picked to be rich in strong results.

| Compound | percent effect |
|---|---|
| `O=C(NCC1CNCCOC1)NC1CCCCC1` (stereo not given) | 1.881 |
| `O=C(CN1CCCC1)NCC(=O)Nc1ccc(F)cc1` | 3.116 |
| `Cc1cc(Br)cc2cc(C(=O)NC(C)(CO)CO)oc12` | 67.75 |
| `CN(C)C(=O)CC1CCNCC1` | 4.997 |
| `CS(=O)(=O)NCc1cnn(-c2ccccc2)c1` | 14.56 |
| `CC1CN(CCS(=O)(=O)c2ccccc2)CCO1` (stereo not given) | 19.19 |
| `CSCC(=O)NC(C1CCNCC1)[C@H]1C[C@@H](O)C1` (stereo not given in full) | -11.31 |
| `CS(=O)(=O)c1ccc(N2CCNCC2)cc1` | 5.784 |
| `CCCS(=O)(=O)NCC(O)CN1CCCC1` (stereo not given) | -0.8749 |
| `CC(C(=O)NCc1ccc(Cl)s1)S(C)(=O)=O` (stereo not given) | 23.16 |
| `Cc1ccc(C(O)c2cccnc2)cc1` (stereo not given) | 57.19 |
| `Cn1cc(Br)cc1C(=O)NCC1CCCO1` (stereo not given) | 62.11 |
| `N#Cc1cc(CN2CCCC3(C2)OCCO3)ccc1F` | 2.191 |
| `CSCC(=O)NCc1ccc(CN2CCCC2)cc1` | 15.35 |
| `COC1CCN(C(=O)CCc2csc(C)n2)CC1` | 36.18 |
| `COCC(O)CN(C)Cc1cccc(NC(C)=O)c1` (stereo not given) | 19.26 |
| `CCc1nn(C)c(N)c1CC` | 20.61 |
| `C[C@H](CO)N(CCCC#N)Cc1ccccc1` | -7.976 |
| `Cc1cccc(N2CCCC(N)C2)n1` (stereo not given) | 89.36 |
| `Clc1ccc2nnc(C3CCCO3)n2n1` (stereo not given) | 28.27 |
| `Cc1cc[nH]c(=O)c1` | 1.899 |
| `CC(C)c1nnc(C2CNCCO2)o1` (stereo not given) | 13.18 |
| `COC(=O)CCCC(=O)Nc1ncc(C)[nH]1` | 8.855 |
| `CCOCCNC(=O)Nc1ccncc1C` | 5.325 |
| `NCc1ccc(N2CCNCC2)cc1` | 3.613 |
| `CN1C(=O)C(N)c2cc(Br)ccc21` (stereo not given) | -2.39 |
| `CN(CCSc1nnc[nH]1)c1ccccc1` | 32.92 |
| `O=C(Nc1ccncc1)NC1CCS(=O)(=O)C1` (stereo not given) | 8.848 |
| `CCCn1cc(NC(=O)CS(=O)(=O)CCC)cn1` | 0.000860 |
| `NCC(c1ccco1)N1CCCCC1` (stereo not given) | 4.159 |
| `COCCC(=O)NCC(O)c1c(Cl)cccc1Cl` (stereo not given) | 11.16 |
| `Cc1ccc(F)c(N2CCC(N)CC2)c1` | 31.07 |
| `CCOC(=O)CNC(=O)NCCc1ccc(OC)cc1` | 48.1 |
| `NCC(CO)Cc1ccco1` (stereo not given) | -0.174 |
| `CN(CCNc1ncccc1C#N)C(=O)OC(C)(C)C` | 43.26 |
| `Cc1ccc(C)c(NC(=O)C(C)N2CCC(O)CC2)c1` (stereo not given) | 4.327 |
| `CN(C)C(=O)C1CCCN1C(=O)Cc1ccccc1` (stereo not given) | 18.9 |
| `OCC1CCN(CCc2ccccc2)C1` (stereo not given) | -3.68 |
| `COc1cc(CCN)ccc1F` | 36.81 |
| `O=C(Nc1ncccn1)C1(c2ccccc2)CC1` | 4.403 |
| `COc1cccc2c1CCC2N` (stereo not given) | 57.51 |
| `CC(=O)N1CCC(NC(=O)c2ccc(Br)o2)CC1` | 2.466 |
| `NC1CCn2cncc21` (stereo not given) | 1.26 |
| `COc1ccc(C(=O)CCN(C)C)cc1OC` | 105 |
| `Cn1ncc(Cl)c1C(=O)NCCN1CCCCC1` | 7.281 |
| `COC(C)(C)CNc1ccc(OC(F)F)cn1` | 31.47 |
| `Cc1nnc(CNC(=O)C2CC(=O)N(C(C)(C)C)C2)o1` (stereo not given) | 4.321 |
| `COCCC(=O)N(C)Cc1cccnc1OC` | 30.38 |
| `CCC(N)c1cccc(OC)c1OC` (stereo not given) | 2.13 |
| `OCCCNc1cccc(Cl)c1-n1cccn1` | 55.47 |
| `CN(CCCN)c1ccccc1F` | 91.06 |
| `CCN(CC)CCNC1=NS(=O)(=O)c2ccccc21` | 10.47 |
| `N#Cc1ncn(CC(=O)c2ccc3c(c2)CCO3)n1` | 15.85 |
| `CC(CC#N)NS(=O)(=O)Cc1ccc(F)cc1` (stereo not given) | 4.837 |
| `COc1ccc(C(=O)N2CCCO2)cc1OC` | 9.501 |
| `Cc1n[nH]cc1CNCCNc1ncc(Cl)cc1Cl` | 54.98 |
| `CNC(CO)c1cc(OC)ccc1Br` (stereo not given) | -4.561 |
| `CC(CNC(=O)c1ccc(C#N)cc1)N1CCCC1` (stereo not given) | 21.55 |
| `CCOC(=O)CNc1ccc(OC)cc1` | 59.11 |
| `Cc1nc(CN2CCCNCC2)cs1` | 19.34 |
| `CC(C)C(NS(=O)(=O)N1CCOCC1)c1ccccc1` (stereo not given) | 51.6 |
| `CC(C)NS(=O)(=O)c1csc(C(N)=O)c1` | 5.018 |
| `c1nc2c([nH]1)C1(CCOCC1)NCC2` | 6.373 |
| `CN1CCC(NC(=O)c2ccc(Br)o2)CC1` | 11.92 |
| `CCC(NC(=O)c1cnc(SC)nc1)c1ccnn1C` (stereo not given) | 3.126 |
| `OCc1cnn(CC(F)(F)F)c1` | 7.627 |
| `NCc1cccc(C(=O)NCc2ccco2)c1` | 55.83 |
| `CC1CCCN(C(=O)CCN2CCOC2=O)C1` (stereo not given) | 14.72 |
| `Cc1cccc(C(=O)Nc2cc[nH]n2)c1F` | 15.97 |
| `COc1ccnc(NC(=O)c2sccc2OC)c1` | -0.8259 |
| `CCc1nccn1CCCn1cnnc1` | 2.674 |
| `CCOC(=O)N1CCN(C(=O)Cc2cccs2)CC1` | 69.47 |
| `Cc1cccc(NCC2CCN(CCS(C)(=O)=O)C2)n1` (stereo not given) | 4.709 |
| `CC(C(=O)N1CC[C@H](O)C1)c1ccsc1` (stereo not given in full) | 10.58 |

The first 5 entries again:

Compound,percent effect
O=C(NCC1CNCCOC1)NC1CCCCC1 (stereo not given),1.881
O=C(CN1CCCC1)NCC(=O)Nc1ccc(F)cc1,3.116
Cc1cc(Br)cc2cc(C(=O)NC(C)(CO)CO)oc12,67.75
CN(C)C(=O)CC1CCNCC1,4.997
CS(=O)(=O)NCc1cnn(-c2ccccc2)c1,14.56

From ChEMBL document CHEMBL3988442, “University of Dundee, Small-Polar-MMV Screening Library” (2021).